# Results taken from publication PMC7473772 (eLife, 2020).
# Values joined by “and” are separate entries in the source; they are usually repeats but may differ in a detail not shown here. Equal entries are not always repeated. Where two headings read alike, the source gives them in different places.
# Columns and labels:
# Assay in all cases: Drug sensitivity assay (resazurin)
# Type in all cases: cell-based, Trypanosoma brucei brucei
# [1] = tested on: tbaqp2/tbaqp3 null cells expressing TbAQP2WT; settings: for EC50 as percent of AQP2/3 null EC50, MEAN: +AQP2 cells
# [2] = tested on: tbaqp2/tbaqp3 null cells expressing TbAQP2 L218W
# [3] = tested on: tbaqp2/tbaqp3 null cells expressing TbAQP3; settings: Fig. 2H; AQP3-WT cells
# [4] = tested on: tbaqp2/tbaqp3 null cells expressing TbAQP2 L84W
# [5] = tested on: tbaqp2/tbaqp3 null cells expressing TbAQP2^L258Y
# [6] = tested on: tbaqp2/tbaqp3 null cells expressing TbAQP3^W102I/R256L; settings: Fig. 2H; AQP3 W102I/R256L cells
# [7] = tested on: tbaqp2/tbaqp3 null cells expressing TbAQP2 L84M
# [8] = tested on: tbaqp2/tbaqp3 null cells expressing TbAQP2^I190T/W192G; settings: Fig. 3D, row printed I190T/W192T
# [9] = tested on: tbaqp2/tbaqp3 null cells; settings: for EC50 as percent of AQP2/3 null EC50, MEAN / EC50 as percent of AQP2/3 null EC50, single repeats: dKO AQP2/3 cells
# [10] = tested on: tbaqp2/tbaqp3 null cells expressing TbAQP3^W102I/R256L/Y250L; settings: Fig. 2H; AQP3 W102I/Y250L/R256L cells
# [11] = tested on: tbaqp2/tbaqp3 null cells expressing TbAQP2 L118W
# [12] = tested on: tbaqp2/tbaqp3 null cells expressing TbAQP2^L264R
# [13] = tested on: tbaqp2/tbaqp3 null cells expressing TbAQP2 L118M
# [14] = tested on: tbaqp2/tbaqp3 null cells expressing TbAQP2^I190T; settings: Fig. 3B
# [15] = tested on: tbaqp2/tbaqp3 null cells expressing TbAQP2^I110W
# [16] = tested on: tbaqp2/tbaqp3 null cells expressing TbAQP2 L218M
# [17] = tested on: tbaqp2/tbaqp3 null cells expressing TbAQP2^S131P/S263A
# [18] = tested on: tbaqp2/tbaqp3 null cells expressing TbAQP2^W192G; settings: Fig. 3C
# [19] = tested on: tbaqp2/tbaqp3 null cells expressing TbAQP2^I110W/L264R; settings: Fig. 2F
# [20] = Fig. 2H, AQP3 W102I/Y250L/R256L set
# [21] = Fig. 3D, TbAQP2(I190T/W192G) set
# [22] = L-->W mutations series, 3 repeats
# [23] = read-out: EC50, MEAN, L-->W mutations series, 3 repeats
# [24] = read-out: EC50, single repeats, L-->W mutations series
# [25] = read-out: EC50, MEAN, L-->M mutations series
smiles,measurement,setting,value
O=[As]c1ccccc1 (centres unmarked),"EC50 (% of aqp2/aqp3 null), MEAN","[1]; +AQP2-WT, L-->W mutations series, 3 repeats",79.71 % of aqp2/aqp3 null
same,"EC50, MEAN (% KO)","[1]; +AQP2, L-->M mutations series",87.81 % KO
same,"EC50, percent of AQP2/3 null EC50",[1]; +AQP2 WT (sensitive control),92.91% and 101.19% and 88.19%
same,"EC50 as percent of AQP2/3 null EC50, MEAN","[1]; Fig. 2F, I110W/L264R set",104.03%
same,"EC50 as percent of AQP2/3 null EC50, MEAN","[1]; Fig. 2H, AQP3-WT set",96.15%
same,"EC50 as percent of AQP2/3 null EC50, MEAN","[1]; Fig. 2H, AQP3 W102I/R256L set",104.03%
same,"EC50 as percent of AQP2/3 null EC50, MEAN",[1]; [20],104.03%
same,"EC50 as percent of AQP2/3 null EC50, MEAN","[1]; Fig. 3B, TbAQP2(I190T) set",101.687%
same,"EC50 as percent of AQP2/3 null EC50, MEAN","[1]; Fig. 3C, TbAQP2(W192G) set",101.687%
same,"EC50 as percent of AQP2/3 null EC50, MEAN",[1]; [21],93.019%
same,EC50,"[1]; read-out: EC50, MEAN, +AQP2-WT, L-->W mutations series, 3 repeats",1.41 nM
same,EC50,"[1]; read-out: EC50, MEAN, +AQP2, L-->M mutations series",3.73 nM
same,EC50,"[1]; read-out: EC50, single repeats, +AQP2-WT, L-->W mutations series",1.94 nM and 0.993 nM and 1.31 nM
same,"EC50 (% of aqp2/aqp3 null), MEAN",[2]; [22],93.25 % of aqp2/aqp3 null
same,EC50,[2]; [23],1.65 nM
same,EC50,[2]; [24],1.98 nM and 1.93 nM and 1.05 nM
same,"EC50 as percent of AQP2/3 null EC50, MEAN",[3],91.77%
same,"EC50 (% of aqp2/aqp3 null), MEAN",[4]; [22],89.58 % of aqp2/aqp3 null
same,EC50,[4]; [23],1.59 nM
same,EC50,[4]; [24],2.04 nM and 1.14 nM and 1.59 nM
same,"EC50, percent of AQP2/3 null EC50",[5],90.94%
same,"EC50 as percent of AQP2/3 null EC50, MEAN",[6],97.54%
same,"EC50, MEAN (% KO)",[7]; L-->M mutations series,108.08 % KO
same,EC50,[7]; [25],3.83 nM
same,"EC50 as percent of AQP2/3 null EC50, MEAN",[8],84.41%
same,"EC50, MEAN (% KO)","[9]; AQKO, L-->M mutations series",100.00 % KO
same,"EC50 (% of aqp2/aqp3 null), MEAN","[9]; AQKO, L-->W mutations series, 3 repeats",100.00 % of aqp2/aqp3 null
same,"EC50 as percent of AQP2/3 null EC50, MEAN","[9]; Fig. 2F, I110W/L264R set",100.00%
same,"EC50 as percent of AQP2/3 null EC50, single repeats","[9]; Fig. 2F, I110W/L264R set",100%
same,"EC50 as percent of AQP2/3 null EC50, MEAN","[9]; Fig. 2H, AQP3-WT set",100.00%
same,"EC50 as percent of AQP2/3 null EC50, single repeats","[9]; Fig. 2H, AQP3-WT set",100.0%
same,"EC50 as percent of AQP2/3 null EC50, MEAN","[9]; Fig. 2H, AQP3 W102I/R256L set",100.00%
same,"EC50 as percent of AQP2/3 null EC50, single repeats","[9]; Fig. 2H, AQP3 W102I/R256L set",100.0%
same,"EC50 as percent of AQP2/3 null EC50, MEAN",[9]; [20],100.00%
same,"EC50 as percent of AQP2/3 null EC50, single repeats",[9]; [20],100%
same,"EC50 as percent of AQP2/3 null EC50, MEAN","[9]; Fig. 3B, TbAQP2(I190T) set",100.000%
same,"EC50 as percent of AQP2/3 null EC50, single repeats","[9]; Fig. 3B, TbAQP2(I190T) set",100.0%
same,"EC50 as percent of AQP2/3 null EC50, MEAN","[9]; Fig. 3C, TbAQP2(W192G) set",100.00%
same,"EC50 as percent of AQP2/3 null EC50, single repeats","[9]; Fig. 3C, TbAQP2(W192G) set",100.0%
same,"EC50 as percent of AQP2/3 null EC50, MEAN",[9]; [21],100.00%
same,"EC50 as percent of AQP2/3 null EC50, single repeats",[9]; [21],100.0%
same,"EC50, percent of AQP2/3 null EC50","[9]; dKO AQP2/3 (resistant control, set to 100)",100.00%
same,EC50,"[9]; read-out: EC50, MEAN, AQKO, L-->M mutations series",3.76 nM
same,EC50,"[9]; read-out: EC50, MEAN, AQKO, L-->W mutations series, 3 repeats",1.77 nM
same,EC50,"[9]; read-out: EC50, single repeats, AQKO, L-->W mutations series",2.01 nM and 2.02 nM and 1.29 nM
same,"EC50 as percent of AQP2/3 null EC50, MEAN",[10],101.37%
same,"EC50 (% of aqp2/aqp3 null), MEAN",[11]; [22],93.74 % of aqp2/aqp3 null
same,EC50,[11]; [23],1.66 nM
same,EC50,[11]; [24],1.9 nM and 1.95 nM and 1.14 nM
same,"EC50, percent of AQP2/3 null EC50",[12],98.45%
same,"EC50, MEAN (% KO)",[13]; L-->M mutations series,87.08 % KO
same,EC50,[13]; [25],4.45 nM
same,"EC50 as percent of AQP2/3 null EC50, MEAN",[14],100.59%
same,"EC50, percent of AQP2/3 null EC50",[15],103.34%
same,"EC50, MEAN (% KO)",[16]; L-->M mutations series,71.30 % KO
same,EC50,[16]; [25],3.53 nM
same,"EC50, percent of AQP2/3 null EC50",[17],94.80%
same,"EC50 as percent of AQP2/3 null EC50, MEAN",[18],98.44%
same,"EC50 as percent of AQP2/3 null EC50, MEAN",[19],105.67%
